In ChEMBL document CHEMBL3885881, “DrugMatrix”:

Species: Rattus norvegicus
Assay: DrugMatrix - Regimen: Daily Repeat
Format: toxicity, organism-based, Sprague-Dawley
Parameters: regimen Daily Repeat, gender Male, age 6-8 weeks
Conditions: in vivo, iv, tissue Blood, vehicle 100 % SALINE

Sequence | MONOCYTE (55 mg/kg, 120 h, dose level Low, time 5 day) [%] | MONOCYTE (0 mg/kg, 72 h, dose level Control, time 3 day) [%]
GADOPENTETATE DIMEGLUMINE | 2.33 | –
LIPOPOLYSACCHARIDE E. COLI O55:B5 | – | 1.83
